Pooled drug test results. Numbers come from NIAID ChemDB, via PubChem.

Shared fields: target-level tests; organism: HIV-1; protein: Protease; endpoint: IC50

Rows are shuffled and stem from different studies. ICn is the concentration giving n% inhibition. Blank or dashed fields: not listed here.

compound,method,value
CCC(=O)O[C@@H]1C[C@]2(C)[C@H]3CC=C4[C@@H]5CC(C)(C)CC[C@]5(C(=O)OCc5ccccc5)CC[C@@]4(C)[C@]3(C)CC[C@H]2C(C)(C)[C@H]1O,FRET,>1200 µg/mL
CC(C)c1ncc(CN(C)C(=O)N[C@H](C(=O)N[C@@H](Cc2ccccc2)[C@H](O)CN2C[C@H]3CCCC[C@H]3C[C@H]2C(=O)NC(C)(C)C)C(C)C)s1,substrate cleavage,~0.0005 µM
COC(=O)[C@@H]1CCCCN1C(=O)[C@@H]1CSCN1C(=O)[C@@H](O)[C@H](Cc1ccccc1)NC(=O)[C@H](CS(C)(=O)=O)NC(=O)COc1cccc2ccccc12,-,>0.05 µM
CCC(=O)O[C@H]1CC[C@]2(C)[C@H]3CC=C4[C@@H]5CC(C)(C)CC[C@]5(C(=O)O)CC[C@@]4(C)[C@]3(C)CC[C@H]2C1(C)C,FRET,>1200 µg/mL
CC(C)(C)NC(=O)[C@@H]1C[C@H](C2CCCCC2)CN1C(=O)[C@@H](O)[C@H](Cc1ccccc1)NC(=O)[C@H](CC(N)=O)NC(=O)OCc1ccccc1,-,>0.05 µM
CC(C)c1nc(COC(=O)N[C@H](C(=O)N[C@@H](Cc2ccccc2)[C@H](O)CN2CCN(Cc3ccc4ccccc4n3)C[C@H]2C(=O)NC(C)(C)C)C(C)C)cs1,substrate cleavage,<0.0005 µM
CCC(=O)O[C@H]1CC[C@]2(C)[C@H]3CC=C4[C@@H]5CC(C)(C)CC[C@]5(C(=O)OCc5ccccc5)CC[C@@]4(C)[C@]3(C)CC[C@H]2C1(C)C,FRET,>1200 µg/mL
COc1ccc(CN2CCN(C[C@@H](O)[C@H](Cc3ccccc3)NC(=O)[C@@H](NC(=O)OCc3csc(C(C)C)n3)C(C)C)[C@H](C(=O)NC(C)(C)C)C2)cc1OC,substrate cleavage,<0.0005 µM
CC(=O)O[C@@H]1C[C@]2(C)[C@H]3CC=C4[C@@H]5CC(C)(C)CC[C@]5(C(=O)O)CC[C@@]4(C)[C@]3(C)CC[C@H]2C(C)(C)[C@H]1O,FRET,>1200 µg/mL
CC(C)C[C@H](NC(=O)[C@@H](NC(=O)CCCCCCCCCCCCCCC(=O)N[C@@H](CC(N)=O)C(=O)N[C@@H](Cc1ccccc1)C(=O)O)C(C)O)C(=O)N[C@@H](Cc1cc(I)c(Oc2cc(I)c(O)c(I)c2)c(I)c1)C(N)=O,-,0.4 µM
CC(C)[C@H](N)C(=O)N[C@H](C(=O)N[C@@H](Cc1ccccc1)[C@H](O)C(=O)N[C@@H](Cc1ccccc1)C(=O)N[C@H](C(=O)N[C@H](C(N)=O)C(C)C)C(C)C)C(C)C,-,<5 µM
CC(C)c1nc(COC(=O)N[C@H](C(=O)N[C@@H](Cc2ccccc2)[C@H](O)CN2CCN(Cc3ccc(F)cc3)C[C@H]2C(=O)NC(C)(C)C)C(C)C)cs1,substrate cleavage,<0.0005 µM
CC1(C)CC[C@]2(C(=O)O)CC[C@]3(C)C(=CC[C@@H]4[C@@]5(C)CC[C@H](OC(=O)CCC(=O)O)C(C)(C)[C@@H]5CC[C@]43C)[C@@H]2C1,FRET,>1200 µg/mL
CC(C)C[C@H](NC(=O)[C@H](Cc1ccc(O)cc1)NC(=O)CCCCCCCCCCCCCCC(=O)N[C@@H](CC(N)=O)C(=O)N[C@@H](Cc1ccccc1)C(=O)O)C(=O)N[C@@H](Cc1ccccc1)C(N)=O,-,2.73 µM
CCCC(=O)O[C@H]1CC[C@]2(C)[C@H]3CC=C4[C@@H]5CC(C)(C)CC[C@]5(C(=O)O)CC[C@@]4(C)[C@]3(C)CC[C@H]2C1(C)C,FRET,>1200 µg/mL
CC(O)[C@H](NC(=O)CCCCCCCCCCCCCCC(=O)N[C@@H](CC(N)=O)C(=O)N[C@@H](Cc1ccccc1)C(=O)O)C(=O)N[C@@H](CC(N)=O)C(=O)N[C@@H](Cc1ccccc1)C(N)=O,-,>5.5 µM
CSC[C@H](NC(=O)COc1cccc2cccnc12)C(=O)N[C@@H](Cc1ccccc1)[C@H](O)C(=O)N1CSC(C)(C)[C@H]1C(=O)NC(C)(C)C,-,<0.05 µM
CC(C)c1nc(COC(=O)N[C@H](C(=O)N[C@@H](Cc2ccccc2)[C@H](O)CN2CCN(Cc3cncs3)C[C@H]2C(=O)NC(C)(C)C)C(C)C)cs1,substrate cleavage,<0.0005 µM
CC(C)(C)NC(=O)[C@H]1N(C(=O)[C@@H](O)[C@H](Cc2ccccc2)NC(=O)[C@H](CC(N)=O)NC(=O)COc2cccc(-c3ccccc3)c2)CSC1(C)C,-,<0.05 µM
CC(C)C[C@H](NC(=O)[C@H](CC(C)C)NC(=O)[C@@H](NC(=O)CCCCCCCCCCCCCCC(=O)N[C@@H](CC(N)=O)C(=O)N[C@@H](Cc1ccccc1)C(=O)O)C(C)O)C(=O)O,-,>5.5 µM
CS(=O)(=O)C[C@H](NC(=O)COc1cccc2ccccc12)C(=O)N[C@@H](Cc1ccccc1)[C@H](O)C(=O)N1CSC[C@H]1C(=O)NC1CCC(O)CC1,-,<5 µM
CC(C)C[C@H](NC(=O)[C@@H](NC(=O)CCCCCCCCCCCCCCC(=O)N[C@@H](CC(N)=O)C(=O)N[C@@H](Cc1ccc2ccccc2c1)C(=O)O)C(C)O)C(=O)N[C@@H](Cc1ccccc1)C(N)=O,-,5.2 µM

Repeating the final 2 entries:

{"compound": "CS(=O)(=O)C[C@H](NC(=O)COc1cccc2ccccc12)C(=O)N[C@@H](Cc1ccccc1)[C@H](O)C(=O)N1CSC[C@H]1C(=O)NC1CCC(O)CC1", "value": "<5 µM"}
{"compound": "CC(C)C[C@H](NC(=O)[C@@H](NC(=O)CCCCCCCCCCCCCCC(=O)N[C@@H](CC(N)=O)C(=O)N[C@@H](Cc1ccc2ccccc2c1)C(=O)O)C(C)O)C(=O)N[C@@H](Cc1ccccc1)C(N)=O", "value": "5.2 µM"}